Results published in US9808527B2, “Methods and compositions for treating HIV infections” (priority 2006, dated 2017).

Experiments:
[1] = molecular target: HIV-1 protease (Human immunodeficiency virus type 1 group M subtype B, UniProt P04585, C555A/C583A/L521I/L551I/Q495K/V491I); settings: read-out: Ki against HIV-1 protease; wild-type PR, pH 5.0
[2] = tested on: HIV-1LAI; assay: MTT assay, MT-2 cells exposed to HIV-1LAI (acute HIV-1 infection assay); type: cell-based; settings: read-out: IC50 against HIV-1LAI, 100 TCID50 of HIV-1LAI, MTT assay on day 7

Compound `CC(C)CN(C[C@@H](O)[C@H](CSc1ccccc1)NC(=O)O[C@@H]1C[C@@H]2CCO[C@@H]2C1)S(=O)(=O)c1ccc(CO)cc1` has a Ki [1] of 0.029 nM and an IC50 [2] of 5 nM.
